Compound potency records, mixed from different reports. Data source: NIAID ChemDB in PubChem.

Shared fields: growth or infection tests; species: Mycobacterium tuberculosis

A number after MIC or MFC names an inhibition level or a share of isolates. Percent inhibition refers to the dose given; in toxicity tests it is the harm to the cells. An empty or dashed field is not shown. Conditions beyond the fields shown may differ between rows. a–b is a range or a potency band. MIC bound: limit read from a one-dose screen.

smiles,cell line,strain,method,conditions,measure,tested at,result
Clc1ccc(-n2ncc(C(c3ccccc3)n3ccnc3)c2-c2ccccc2Cl)c(Cl)c1,-,ATCC 27294,-,-,MIC90,-,26.2 µM
C=C1C(OC(=O)C(C)C)C[C@H]2C(=C)CC[C@H]3C(=C)C(=O)O[C@@H]3[C@@H]12,-,-,-,-,MIC,-,32 µg/mL
O=C(Nn1c(-c2ccccc2)ccc1-c1ccccc1)c1ccncc1,-,H37Rv (ATCC 27294),turbidity,-,MBC,-,4.4 µg/mL
COc1ccc(-c2cc(=O)c3c(O)cc(OC)cc3o2)c(-c2c(O)cc(O)c3c(=O)cc(-c4ccc(O)cc4)oc23)c1,-,-,-,-,MIC,-,64 µg/mL
NC(CCC(=O)O)CCC(=O)O,-,H37Rv,-,-,MIC,-,>1000 µg/mL
COc1ccc(C2=C3c4cc(OC)c(OC)cc4CCN3C(=S)SS2)cc1OC,-,H37Rv,BACTEC,-,MIC bound,-,>12.5 µg/mL
CC(C)=NNC(=O)CCCCCC(=O)O,-,H37Rv,-,-,MIC,-,200 µg/mL
Cc1ccc(-c2ccccc2)n1NC(=O)C1=C(Cl)CC(Cl)C=C1,-,H37Rv (ATCC 27294),resazurin,-,inhibition,100 µg/mL,100%
Fc1ccccc1-n1ncc(C(c2ccccc2)n2ccnc2)c1-c1ccccc1,-,ATCC 35822 (isoniazid-resistant),-,-,MIC90,-,≥100 µM
Cc1ccc2c(c1)[n+]([O-])c(N)c(C#N)[n+]2[O-],-,H37Rv (ATCC 27294),resazurin,-,MIC,-,156.3 µM
CC[C@H]1OC(=O)[C@H](C)[C@@H](O[C@H]2C[C@@](C)(OC)[C@@H](O)[C@H](C)O2)[C@H](C)[C@@H](O[C@@H]2O[C@H](C)C[C@H](N(C)C)[C@H]2O)[C@](C)(OC)C[C@@H](C)C(=O)[C@H](C)[C@@H](O)[C@]1(C)O,-,30 isolates/HIV+,-,-,MIC50,-,4 µg/mL
CC1COc2c(N3CCN(C)CC3)c(F)cc3c(=O)c(C(=O)O)cn1c23,-,9 isolates (RMP INH-S),-,-,MIC90,-,2 µg/mL
CCOC(=O)/C(N=Nc1ccc(C(=O)N/N=C/c2ccc([N+](=O)[O-])o2)cc1)=C(\C)O,-,H37Rv,-,-,MIC,-,<12.5 µg/mL
Cc1ccc(-c2ccccc2)n1NC(=O)c1ccncc1,-,H37Rv (ATCC 27294),resazurin,-,inhibition,100 µg/mL,100%
CC1CC(=O)c2cc(-c3ccccc3)oc2C1,-,H37Rv,BACTEC,-,MIC bound,-,>12.5 µg/mL
CO[C@H]1/C=C/O[C@@]2(C)Oc3c(C)c(O)c4c(O)c(c(/C=N/N=C/N5CCCCC5)c(O)c4c3C2=O)NC(=O)/C(C)=C\C=C\[C@H](C)[C@H](O)[C@@H](C)[C@@H](O)[C@@H](C)[C@H](OC(C)=O)[C@@H]1C,-,Isolate S1,-,-,MIC,-,25 µg/mL
NNC(=O)CCC(N)C(=O)NN,-,H37Rv,-,-,MIC,-,50 µg/mL
Cc1c(O)c(=O)ccn1CCO,-,H37Rv,BACTEC,-,inhibition,12.5 µg/mL,-9%
Fc1ccc(-c2c(C(c3ccccc3)n3ccnc3)cnn2-c2ccccc2)cc1,-,ATCC 27294,-,-,MIC90,-,≥100 µM
COc1cc2c(cc1Cl)[n+]([O-])c(N)c(C#N)[n+]2[O-],-,H37Rv (ATCC 27294),resazurin,-,MIC,-,312.5 µM
COc1cc(/C=N/Nc2nnc3c4ccccc4c4ncccc4c3n2)cc(OC)c1OC,-,H37Rv,resazurin,-,inhibition,6.25 µg/mL,2%
O=C(N[C@@H]1COc2nc([N+](=O)[O-])cn2C1)Oc1ccc(OC(F)(F)F)cc1,-,H37Rv,low oxygen,-,MIC,-,>64 µM
CC1(C)CCC[C@@]2(C)C1CC[C@]1(C)C2CCC2[C@@]3(C)CC[C@H](C(C)(C)O)C3C[C@H](O)[C@]21C,-,-,-,-,MIC,-,12.5 µg/mL
CCOC(=O)c1c(N)sc2sc(-c3ccc(C)cc3)cc12,-,H37Rv,-,-,MIC,-,4.9 µM
COc1ccc2cc3n(c(=O)c2c1OC)CCc1cc2c(cc1-3)OCO2,-,H37Rv,BACTEC,-,MIC bound,-,>12.5 µg/mL
N#Cc1c(N)sc2sc(-c3cccc4ccccc34)cc12,-,H37Rv,-,-,MIC,-,10.2 µM
CC(=O)/C(N=Nc1ccc(C(=O)N/N=C/c2ccc([N+](=O)[O-])o2)cc1)=C(/O)c1ccccc1,-,H37Rv,-,-,inhibition,12.5 µg/mL,94%
NNC(=O)C1CCCC(=O)N1,-,H37Rv,-,-,MIC,-,>20 µg/mL
CCOC(=O)c1c(N)sc2sc(-c3ccc(Cl)cc3)cc12,-,H37Rv,-,-,MIC,-,9.3 µM
O=C(c1ccncc1)N(/N=C/c1cccc([N+](=O)[O-])c1)C(=O)c1cnccn1,-,H37Rv,-,-,MIC,-,1 µg/mL
Nc1cc2nc3ccccc3oc-2cc1=O,VERO,H37Rv,BACTEC,-,MIC,-,0.2 µg/mL
O=C(c1ccncc1)N(NCc1cccc(Cl)c1)C(=O)c1cnccn1,-,9 isolates (resistant),-,-,MIC,-,8–16 µg/mL
COc1ccc(-n2[nH]c(C)c(N=Nc3ccc(-c4n[nH]c(=S)o4)cc3)c2=O)cc1,-,H37Rv,-,-,inhibition,6.25 µg/mL,2%
Cc1ccc(NC(=O)CCl)cc1[N+](=O)[O-],-,H37Rv,BACTEC,-,MIC bound,-,>12.5 µg/mL
COc1ccc(-c2oc3cc(O)cc(O)c3c(=O)c2OC)cc1,-,-,-,-,MIC,-,50 µg/mL
Clc1ccc(-n2ncc(C(c3ccccc3)n3ccnc3)c2-c2ccccc2)c(Cl)c1,-,ATCC 35820 (streptomycin-resistant),-,-,MIC90,-,98.3 µM
CO[C@H]1/C=C/O[C@@]2(C)Oc3c(C)c(O)c4c(O)c(c5c(c4c3C2=O)NC2(CCN(CC(C)C)CC2)N=5)=NC(=O)/C(C)=C\C=C\[C@H](C)[C@H](O)[C@@H](C)[C@@H](O)[C@@H](C)[C@H](OC(C)=O)[C@@H]1C,-,30 isolates/HIV+,-,-,MIC90,-,1 µg/mL
Cc1c(CN2CCN(C)CC2)cc(-c2ccccc2Cl)n1-c1ccccc1,-,103471,-,-,MIC,-,>16 µg/mL
CC(=O)NC(CCC(NC(C)=O)C(=O)NN)C(=O)NN,-,H37Rv,-,-,MIC,-,200 µg/mL
Cc1c(CN2CCSCC2)cc(-c2ccccc2)n1-c1ccccc1Cl,-,103471,-,-,MIC,-,16 µg/mL
Cc1ccc(S(=O)(=O)Oc2ccc3sc4cccc(NCCN(C)C)c4c(=O)c3c2)cc1,-,H37Rv,BACTEC,-,MIC,-,3.13 µg/mL
COc1ccc(-c2oc3cc(O)c(O)c(O)c3c(=O)c2OC)cc1,-,-,-,-,MIC,-,50 µg/mL
Cc1csc(C(C)(O)c2nnc(Nc3ncn(Cc4c(F)cccc4F)n3)s2)n1,-,WILD TYPE,-,-,MIC,-,1.56 µM
Cc1ccc(NC(=O)C(=O)CC(=O)c2c(C)n([O-])c3ccccc3[n+]2=O)cc1C,-,H37Rv,resazurin,-,MIC bound,-,>6.25 µg/mL
COc1cc(/C=N/N(C(=O)c2ccncc2)C(=O)c2cnccn2)ccc1O,-,H37Rv,-,-,MIC,-,4 µg/mL
O=C1C=CC(=O)c2nc3ccccc3nc21,-,H37Rv,BACTEC,-,MIC bound,-,>12.5 µg/mL
CC(C)C12C=C3CC[C@H]4[C@](C)(C(=O)O)CCC[C@]4(C)[C@]3(CC1)OO2,-,H37Ra,resazurin,-,MIC,-,50 µg/mL
CC(=O)N1c2ccc3ccccc3c2S(=O)(=O)c2ccc3ccccc3c21,-,H37Rv,BACTEC,-,MIC bound,-,>12.5 µg/mL
Fc1ccccc1-c1c(C(c2ccccc2)n2ccnc2)cnn1-c1ccccc1,-,ATCC 27294,-,-,MIC50,-,≥100 µM
CCOC(=O)c1c(N)sc2sc(-c3ccc(C(C)C)cc3)cc12,-,H37Rv,-,-,MIC,-,2.3 µM
Cc1c(CN2CCSCC2)cc(-c2ccccc2F)n1-c1ccccc1,-,103471,-,-,MIC,-,4 µg/mL
CCc1oc(=O)c(Cc2c(OC(C)=O)cc(OC(C)=O)c3c2OC(c2ccccc2)CC3=O)c(OC(C)=O)c1C,-,H37Rv,BACTEC,-,MIC bound,-,>12.5 µg/mL
CCCCC[C@H]1CCCCCCCCCC(=O)OC[C@H]2OC(O[C@H]3[C@H](O1)O[C@H](C)[C@H](O)[C@@H]3O)[C@H](OC1O[C@@H](C)[C@H](OC(=O)[C@H](C)[C@@H](C)O)[C@@H](OC3O[C@@H](C)[C@H](O)[C@@H](O)[C@H]3O)[C@H]1OC(=O)C(C)CC)[C@@H](O)[C@@H]2O,-,-,-,-,MIC,-,16 µg/mL
Cc1ccc2c(c1)nc1cc(Nc3ccc(Cl)cc3)c(=NC3CCCCCCC3)cc-1n2-c1ccc(Cl)cc1,-,H37Rv (RFP-resistant),-,-,MIC,-,0.2 µg/mL
NNC(=O)c1ccncc1,-,ATCC 27294,-,-,MIC90,-,1.1 µM
NC(=O)C(=CNC(=S)Nc1ccccc1)C(N)=O,-,H37Rv,BACTEC,-,inhibition,6.25 µg/mL,68%
CC(=O)O[C@H]1CC[C@@]2(C)C(CC[C@]3(C)C2CCC2[C@@]4(C)CC[C@H](C(C)(C)O)C4C[C@H](O)[C@]23C)C1(C)C,-,-,-,-,MIC,-,12.5 µg/mL
C=C1C[C@@]23CC[C@H]4[C@@](C)(CCC[C@@]4(C)C(=O)O)[C@@H]2CC[C@@H]1C3,-,H37Rv,BACTEC,-,inhibition,12.5 µg/mL,12%
O=C(c1ccncc1)N(/N=C/c1ccc(Cl)cc1Cl)C(=O)c1cnccn1,-,H37Rv,-,-,MIC,-,>16 µg/mL
Cc1ccc([N+](=O)[O-])cc1NC(=O)C(=O)Cc1cc(=O)oc2cc(O)ccc12,-,H37Rv,resazurin,-,MIC bound,-,>6.25 µg/mL
O=C(c1ccncc1)N(/N=C/c1ccccc1Cl)C(=O)c1cnccn1,-,9 isolates (sensitive),-,-,MIC,-,0.25–2 µg/mL
Cc1c(CN2CCSCC2)cc(-c2cccc3ccccc23)n1-c1ccccc1,-,103471,-,-,MIC,-,>16 µg/mL
Cc1cc(O)c2c(c1)C(=O)c1cccc(O)c1C2=O,-,-,-,-,MIC,-,>128 µg/mL
CC(=O)c1c(O)c(C)c(O)c2c1OC1=Cc3c(c(C)nn3-c3ccccc3)C(=O)C12C,-,H37Rv,BACTEC,-,inhibition,12.5 µg/mL,25%
CC(C)(O)c1ccc2c(c1)CC[C@H]1[C@](C)(C(=O)O)CCC[C@]21C,-,H37Ra,resazurin,-,MIC,-,50 µg/mL
CO[C@H]1/C=C/O[C@@]2(C)Oc3c(C)c(O)c4c(O)c(c(/C=N/N5CCN6CCCCC6C5)c(O)c4c3C2=O)NC(=O)/C(C)=C\C=C\[C@H](C)[C@H](O)[C@@H](C)[C@@H](O)[C@@H](C)[C@H](OC(C)=O)[C@@H]1C,-,H37Rv,-,-,MIC,-,0.03 µg/mL
Cc1c(CN2CCSCC2)cc(-c2ccccc2)n1-c1ccc(F)cc1,-,-,-,-,MIC,-,3 µg/mL
CCN(CC)CCCN=c1cc2n(-c3ccc(Cl)c(Cl)c3)c3ccccc3nc-2cc1Nc1ccc(Cl)c(Cl)c1,-,2218,-,multidrug-resistant,MIC,-,0.25 µg/mL
Cc1c(CN2CCN(C)CC2)cc(-c2cccc3ccccc23)n1-c1ccccc1,-,103471,-,-,MIC,-,>16 µg/mL
O=C(CCCC(=O)NNC(=S)Nc1ccc2ccccc2c1)NNC(=S)Nc1ccc2ccccc2c1,-,H37Rv,BACTEC,-,inhibition,12.5 µg/mL,-7%
NNC(=O)c1ccncc1,-,CF74,resazurin,-,MIC,-,>25 µg/mL
NNC(=O)c1ccncc1,-,Bovine,-,-,MIC,-,0.4 µg/mL
CC(C)c1ccc(-c2cc3c(C#N)c(N)sc3s2)cc1,-,MDR-TB,-,multidrug-resistant,MIC,-,20.9 µM
O=C1OC(c2ccccc2)=N/C1=C\c1ccc2c(c1)OCO2,-,H37Rv,BACTEC,-,inhibition,12.5 µg/mL,32%
NNC(=O)C1CCC(=O)N1,-,H37Rv,-,-,MIC,-,>100 µg/mL
Cc1[nH]n(-c2ccc([N+](=O)[O-])cc2)c(=O)c1N=Nc1ccc(-c2n[nH]c(=S)n2C)cc1,-,H37Rv,-,-,inhibition,6.25 µg/mL,1%
Clc1ccccc1C(c1ccccc1)(c1ccccc1)n1ccnc1,-,ATCC 35822 (isoniazid-resistant),-,-,MIC50,-,≥100 µM
COc1ccc(/C=N/N(C(=O)c2ccncc2)C(=O)c2cnccn2)c(O)c1,-,9 isolates (sensitive),-,-,MIC,-,>16 µg/mL
c1ccc(-c2c(C(c3ccccc3)n3ccnc3)cnn2-c2ccccc2)cc1,-,ATCC 35820 (streptomycin-resistant),-,-,MIC90,-,>100 µM
COc1cc(NS(=O)(=O)c2ccccc2)c2nc3ccc(Cl)cc3nc2c1,-,H37Rv,BACTEC,-,inhibition,12.5 µg/mL,-23%
Cc1cc(=O)oc2ccc(OCC(=O)Nn3c(C)ccc3-c3ccccc3)cc12,-,H37Rv (ATCC 27294),resazurin,-,inhibition,100 µg/mL,100%
O=C1NC(=O)[C@@]2(CC[C@@H](O)C2)c2ccncc21,-,H37Rv,BACTEC,-,MIC,-,≥12.5 µg/mL
NNC(=O)c1ccncc1,-,G96V,-,-,MIC,-,0.06 µg/mL

For reference, 7 entries again:

smiles,cell line,strain,method,conditions,measure,tested at,result
Cc1ccc2c(c1)nc1cc(Nc3ccc(Cl)cc3)c(=NC3CCCCCCC3)cc-1n2-c1ccc(Cl)cc1,-,H37Rv (RFP-resistant),-,-,MIC,-,0.2 µg/mL
CC1CC(=O)c2cc(-c3ccccc3)oc2C1,-,H37Rv,BACTEC,-,MIC bound,-,>12.5 µg/mL
COc1ccc2cc3n(c(=O)c2c1OC)CCc1cc2c(cc1-3)OCO2,-,H37Rv,BACTEC,-,MIC bound,-,>12.5 µg/mL
COc1cc(/C=N/Nc2nnc3c4ccccc4c4ncccc4c3n2)cc(OC)c1OC,-,H37Rv,resazurin,-,inhibition,6.25 µg/mL,2%
Cc1ccc2c(c1)[n+]([O-])c(N)c(C#N)[n+]2[O-],-,H37Rv (ATCC 27294),resazurin,-,MIC,-,156.3 µM
Cc1c(CN2CCN(C)CC2)cc(-c2ccccc2Cl)n1-c1ccccc1,-,103471,-,-,MIC,-,>16 µg/mL
CC(C)c1ccc(-c2cc3c(C#N)c(N)sc3s2)cc1,-,MDR-TB,-,multidrug-resistant,MIC,-,20.9 µM